Measurements taken from patent publication US20210108251.
For some assays here: A negative result means that nothing was seen under these conditions. For some assays here: Tags and fusion partners may be left off the protein sequences shown.

By UniProt entry, the sequences of proteins in these tests, tags left out. Residues count along the entry.
UniProt P00642, 2-277: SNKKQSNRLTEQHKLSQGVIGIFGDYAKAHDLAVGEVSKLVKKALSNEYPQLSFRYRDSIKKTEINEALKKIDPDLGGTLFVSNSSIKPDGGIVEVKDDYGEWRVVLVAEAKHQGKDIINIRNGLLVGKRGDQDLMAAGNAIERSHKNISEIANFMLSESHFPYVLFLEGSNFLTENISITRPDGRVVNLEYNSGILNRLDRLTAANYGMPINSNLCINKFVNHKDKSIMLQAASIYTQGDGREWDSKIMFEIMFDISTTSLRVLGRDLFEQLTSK

Key:
Assay in all cases: enzyme reaction in vitro
PstI = target: T1, PstI (UniProt P00640); conditions: 5'-amine and 3'-amine, purified recombinant protein, protein details: New England Biolabs, folded or branched DNA
T1 sequence (looked up, limits assumed): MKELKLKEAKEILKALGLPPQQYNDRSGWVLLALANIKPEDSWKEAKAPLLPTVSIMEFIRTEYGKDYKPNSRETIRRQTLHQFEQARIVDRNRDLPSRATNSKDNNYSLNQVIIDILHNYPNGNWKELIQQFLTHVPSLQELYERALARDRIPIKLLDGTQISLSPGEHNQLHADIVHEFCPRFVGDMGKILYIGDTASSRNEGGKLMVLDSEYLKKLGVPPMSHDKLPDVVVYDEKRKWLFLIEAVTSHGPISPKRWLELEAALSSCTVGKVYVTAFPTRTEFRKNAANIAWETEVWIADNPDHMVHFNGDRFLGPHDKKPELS

[1] = target: EcoRI (RY13 lysate) (Escherichia coli RY13) (UniProt P00642); conditions: 5'-amine and 3'-amine, protein in an extract, folded or branched DNA
EcoRI = EcoRI (UniProt P00642); conditions: 5'-amine and 3'-amine, off-target enzyme, 2 units, purified recombinant protein, protein details: Thermo Scientific, folded or branched DNA
[2] = off-target enzyme, 2 units, pair SEQ 1+2
[3] = RY13 lysate, DH5-alpha lysate gives no or few signals
[4] = off-target enzyme, 2 units, pair SEQ 3+4
[5] = off-target enzyme, 2 units, pair SEQ 5+6

Q: What does the source list for “ATTTCCAGAATTCTGGGTATAGGAACTTCGAACGACTCGACTGTGAAGATCGCTTATCGAGTCGTTCGAAGTTCCTATACCCAGAATTCTGGAAAT [REN2-PB-EcoRI]”?
A: activity on this sequence (PstI; [2]): not active; activity on this sequence [1, 3]: active

Q: What does the source list for “ATTTGACCTCGAGGTCGTATAGGAACTTCGAACGACTCGCCTCAATGCACATGTTTGGCTCCCGAGTCGTTCGAAGTTCCTATACGACCTCGAGGTCAAAT [REN2-ID33-XhoI]”?
A: activity on this sequence (EcoRI; pair SEQ 3+4): not active; activity on this sequence (PstI; [4]): not active

Q: Which “activity on this sequence” value (PstI; [2]) does the source give for “ATTTGACGAATTCGTCGTATAGGAACTTCGAACGACTCGCCTCAATGCACATGTTTGGCTCCCGAGTCGTTCGAAGTTCCTATACGACGAATTCGTCAAAT [REN2-ID33-EcoRI]” here?
A: not active

Q: What about the “activity on this sequence” value [1, 3] of the same sequence?
A: active

Q: “ATTTCCACTGCAGTGGGTATAGGAACTTCGAACGACTCGACTGTGAAGATCGCTTATCGAGTCGTTCGAAGTTCCTATACCCACTGCAGTGGAAAT [REN2-PB-PstI]” was tested. Which “activity on this sequence” value (EcoRI; pair SEQ 7+8) did it give?
A: not active

Q: What about the “activity on this sequence” value (PstI; pair with SEQ 7, RCA readout) of the same sequence?
A: active

Q: With “ATTTCCACTCGAGTGGGTATAGGAACTTCGAACGACTCGACTGTGAAGATCGCTTATCGAGTCGTTCGAAGTTCCTATACCCACTCGAGTGGAAAT [REN2-PB-XhoI]” as the sequence, how does the “activity on this sequence” value (EcoRI; pair SEQ 3+4) read?
A: not active

Q: And the “activity on this sequence” value (PstI; [4])?
A: not active

Q: What does the source list for “ATTTCCACCGCGGTGGGTATAGGAACTTCGAACGACTCGACTGTGAAGATCGCTTATCGAGTCGTTCGAAGTTCCTATACCCACCGCGGTGGAAAT [REN2-PB-SacII]”?
A: activity on this sequence (EcoRI; pair SEQ 5+6): not active; activity on this sequence (PstI; [5]): not active

Q: Which “activity on this sequence” value (EcoRI; pair SEQ 7+8) does the source give for “ATTTGACCTGCAGGTCGTATAGGAACTTCGAACGACTCGCCTCAATGCACATGTTTGGCTCCCGAGTCGTTCGAAGTTCCTATACGACCTGCAGGTCAAAT [REN2-ID33-PstI]” here?
A: not active

Q: And the “activity on this sequence” value (PstI; pair with SEQ 8, RCA readout)?
A: active

Q: Which “activity on this sequence” value ([1]; pair with SEQ 1, detects 0.4 ug RY13 bacteria) does the source give for “ATTCACTGAATTCAGCGCTTAGGAGTGCATATACGATGCACTGTGAAGATCGCTTATGCATCGTATATGCACTCCTAAGCGCTGAATTCAGTGAAT [REN2B-PB-EcoRI]” here?
A: active

Q: “ATTTGACCCGCGGGTCGTATAGGAACTTCGAACGACTCGCCTCAATGCACATGTTTGGCTCCCGAGTCGTTCGAAGTTCCTATACGACCCGCGGGTCAAAT [REN2-ID33-SacII]” was tested. Which “activity on this sequence” value (EcoRI; pair SEQ 5+6) did it give?
A: not active

Q: And the “activity on this sequence” value (PstI; [5])?
A: not active
